Assay results from patent US20250002954A1, “Novel Compound, Use Thereof, and Method for Producing Same, and Compound-Containing Composition, Method for Producing 4-Trehalosamine, and Microorganism” (Microbial Chemistry Research Foundation, priority 2021, published 2025).

Tested on: 12 kinds of microorganisms
Assay: Assimilation by 12 kinds of microorganisms (proliferation in culture fluids free of carbon source)
Format: cell-based
Settings: 0.4% (PA 0.1%) in culture fluids free of carbon source, 5 days, A620

| SMILES | proliferation of microorganisms (assimilation) |
| --- | --- |
| N[C@H]1[C@H](O)[C@@H](O)[C@@H](O[C@H]2O[C@H](CO)[C@@H](O)[C@H](O)[C@H]2O)O[C@@H]1CO [4-trehalosamine] | activated proliferation was not observed with any of the 12 kinds of microorganisms |
| OC[C@H]1O[C@H](O[C@H]2O[C@H](CO)[C@@H](O)[C@H](O)[C@H]2O)[C@H](O)[C@@H](O)[C@@H]1O [trehalose, reference compound] | activated proliferation was observed with 6 kinds of bacteria |
